Experimental data: PubChem BioAssay AID504761 (Drosophila RNAi Screening Center, 2011)

Aim: 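Insect host genes that dengue virus relies on to spread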 (primary screen)
Cells: D.Mel-2 cells from Drosophila
Reagents: long dsRNA against Drosophila genes
Challenge: infection with dengue virus type 2; dose and infection time not stated
Measured: 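Per well on two replicate plates, imaging gave the percent of cells positive for viral envelope protein, ranked by infection, and a nuclear count of cells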
Scale: infection score: higher = more virus-infected cells; cell count: higher = more cells in the well
Hit rule: 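Low infection ranks in the two replicates (chance level up to 0.065) followed by a retest with a 1.5-fold or larger significant decrease, p below 0.05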
Calls: active = confirmed: knock-down lowers infection; inactive = not picked or not confirmed
The screen tested about 22,000 reagents; this is an unselected part of those with a known target gene and a result. In the full data, 116 (0.52%) are marked active. 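Calls depend on retest data that are not deposited; infection was ranked per plate without normalising between plates; the unit of the infection score is not given.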 Raw values are not corrected between plates. Reagents against one gene are numbered here. Not stated in the record: the amount of reagent, the time to read-out.

gene	reagent	infection score, replicate 1	infection score, replicate 2	cell count, replicate 1	cell count, replicate 2	call
CG13894	1	4.24	4.7	6786	6580	inactive
CG13894	2	23.7	23.6	3974	5757	inactive
kri (krishah)	1	2.73	1.72	6952	6630	inactive
yata	1	1.75	4.91	1654	5849	inactive
mi (minus)	1	2	13.7	6450	4397	inactive
mi (minus)	2	9.61	11.6	4597	1856	inactive
CG4133	1	3.22	1.55	6343	6320	inactive
CG31467	1	24	15.2	3998	5408	inactive
CG31467	2	11	16.8	5349	5848	inactive
Opa1 (Optic atrophy 1)	1	23.2	15.7	4417	5991	inactive
Opa1 (Optic atrophy 1)	2	7.61	1.18	1471	509	inactive
CG42233	1	5.32	10.7	3137	5317	inactive
CG42233	2	6.19	3.63	2938	6417	inactive
CG42233	3	7.09	10.5	4991	4407	inactive
CG42233	4	5.21	4.49	6194	6009	inactive
CG4259	1		4.41	374	204	inactive
CG4259	2	0.41	24.7	243	5309	inactive
TM9SF4 (Transmembrane 9 superfamily protein member 4)	1	30.6	13.4	6406	6572	inactive
TM9SF4 (Transmembrane 9 superfamily protein member 4)	2	3.09	0.63	6544	6866	inactive
CG30349	1	10.7		2533	445	inactive
CG30349	2	36.8		4063	418	inactive
CG30349	3	1.69		827	465	inactive
Tango4 (Transport and Golgi organization 4)	1	3.42	14.3	2891	2662	inactive
Tango4 (Transport and Golgi organization 4)	2	7.5	13.7	2092	1936	inactive
alpha-Cat (alpha Catenin)	1	17.8	12.7	5158	4293	inactive
CG7059	1	5.32	5.94	1806	5659	inactive
CG7059	2	11.4	8.79	4615	6203	inactive
Nrx-IV (Neurexin IV)	1	12.7	12.2	5986	6002	inactive
Wee1 (Wee1 kinase)	1	4.72	9.96	6099	6493	inactive
Wee1 (Wee1 kinase)	2	1.24	4.98	6713	7005	inactive
CG14427	1	0.45	0.61	6832	6841	inactive
CG14427	2		16.2	307	4212	inactive
ArfGAP3 (ADP-ribosylation factor GTPase activating protein 3)	1	11.3	7.26	5051	6833	inactive
ArfGAP3 (ADP-ribosylation factor GTPase activating protein 3)	2	8.01	15.3	6203	5015	inactive
CG13408	1	2.66	2	6004	6348	inactive
CG13408	2	2.74	0.44	6686	6434	inactive
CG3287 (retired record)	1	33.9	24.6	5259	6053	inactive
Lamtor1 (Late endosomal/lysosomal adaptor, MAPK and MTOR activator 1)	1	13.6	17.7	6220	6027	inactive
CG15152	1	12.3		2965	532	inactive
BubR1 (Bub1-related kinase)	1	11.1	26.6	4895	3518	inactive
bbg (big bang)	1	0.53	1.63	6268	6265	inactive
bbg (big bang)	2	1.2	2.37	6064	6212	inactive
bbg (big bang)	3	19.2	14.1	6360	6588	inactive
bbg (big bang)	4	2.54	23.1	984	5359	inactive
ihog (interference hedgehog)	1	4.18	1.98	5980	6121	inactive
ihog (interference hedgehog)	2		14.9	393	3517	inactive
mam (mastermind)	1	8.04	3.49	6034	5507	inactive
mam (mastermind)	2	1.71	2.46	6495	6592	inactive
mam (mastermind)	3	1.15	0.33	6776	6412	inactive
Tmem18 (Transmembrane protein 18)	1	14.3	4.2	6259	6594	inactive
CG14971	1	25.9	2.59	6449	657	inactive
UQCR-11L (Ubiquinol-cytochrome c reductase 11 kDa subunit-like)	1	14.2	7.48	6050	6055	inactive
CG5194	1	7.19	5.51	6298	6909	inactive
VhaAC45 (Vacuolar H[+] ATPase AC45 accessory subunit)	1	3.86	2.9	3654	4480	inactive
sage (salivary gland-expressed bHLH)	1	11.8	7.32	6580	6366	inactive
sage (salivary gland-expressed bHLH)	2	9.18	24.6	5989	5801	inactive
CG31659	1	1.25	1.88	6614	6957	inactive
CG34460	1	10.3	17.8	6539	3962	inactive
Clk (Clock)	1	3.79	10.7	6383	6287	inactive
CG5078	1	1.78	6.01	6302	6292	inactive
CG10194	1	10.1	6.47	6555	6117	inactive
faf (fat facets)	1	0.68	6.23	1175	4973	inactive
Dsor1 (Downstream of raf1)	1	1.04	6.83	5266	5254	inactive
Dsor1 (Downstream of raf1)	2	2.32	3.21	6681	7193	inactive
Obp19c (Odorant-binding protein 19c)	1	7.65	1.12	3714	6143	inactive
Dab (Disabled)	1	3.66	6.43	6117	6474	inactive
Ntf-2r (Nuclear transport factor-2-related)	1	11.6	11.9	3827	4863	inactive
CG13725	1	6.18	4.86	6428	6293	inactive
Lam (Lamin)	1	2.11	3.33	5641	5613	inactive
Lam (Lamin)	2	14.8	13.5	6125	5295	inactive
Droj2 (DnaJ-like-2)	1	7.4	29.4	4082	4076	inactive
Droj2 (DnaJ-like-2)	2	9.3		979	397	inactive
CG8850	1	32.8	18.1	5935	5145	inactive
CG8850	2	2.94	2.85	6320	6846	inactive

Reprinted from above for reference:
gene	reagent	infection score, replicate 1	infection score, replicate 2	cell count, replicate 1	cell count, replicate 2	call
Nrx-IV (Neurexin IV)	1	12.7	12.2	5986	6002	inactive
Wee1 (Wee1 kinase)	1	4.72	9.96	6099	6493	inactive
Wee1 (Wee1 kinase)	2	1.24	4.98	6713	7005	inactive
CG14427	1	0.45	0.61	6832	6841	inactive
CG14427	2		16.2	307	4212	inactive
ArfGAP3 (ADP-ribosylation factor GTPase activating protein 3)	1	11.3	7.26	5051	6833	inactive
ArfGAP3 (ADP-ribosylation factor GTPase activating protein 3)	2	8.01	15.3	6203	5015	inactive
CG13408	1	2.66	2	6004	6348	inactive
CG13408	2	2.74	0.44	6686	6434	inactive
CG3287 (retired record)	1	33.9	24.6	5259	6053	inactive
Lamtor1 (Late endosomal/lysosomal adaptor, MAPK and MTOR activator 1)	1	13.6	17.7	6220	6027	inactive
